# From article PMC11796224, “Merck Open Global Health Library in vitro screening against Schistosoma mansoni identified two new substances with antischistosomal activities for further development” (Parasites & Vectors, 2025)
# Tests used:
# Format in all cases: cell-based, Schistosoma mansoni
# [1] = test system: adult S. mansoni couples; assay: In vitro screening of OGHL compounds and analogues against adult S. mansoni couples (Giessen); conditions: 10 µM; for Egg production score: 24 h, normalised, compared to negative control (DMSO); for Attachment after 4 h / Attachment after 24 h / Pairing stability after 4 h / Pairing stability after 24 h: adult couples, Giessen team
# [2] = test system: S. mansoni couples; assay: Single and double treatment with OGHL00022 and/or OGHL00121 (Giessen); conditions: single/double treatment experiment; for Motility score after 24 h: 10 µM each, n = 3, mean ± SD
# [3] = test system: adult S. mansoni couples; assay: In vitro screening against adult S. mansoni couples (Basel); conditions: 10 µM, 24 h incubation, Basel team
# [4] = test system: adult S. mansoni couples; assay: Determination of EC50 values for pairing stability, attachment and motility (Giessen); conditions: 2.5-50 µM
# [5] = test system: S. mansoni couples; assay: Morphological analysis by confocal laser scanning microscopy (CLSM); conditions: 10 µM, 24 h after treatment
# [6] = test system: stem cell proliferation in S. mansoni couples; assay: EdU assay for stem cell proliferation; conditions: 10 µM, 24 h treatment, then 24 h EdU
# [7] = test system: newly transformed schistosomula (NTS); assay: In vitro screening against newly transformed schistosomula (Basel); conditions: 10 µM, 72 h incubation, Basel team
# [8] = scale 0-4 (3 = normal activity)
smiles,measurement,setting,value
Clc1cccc(OCc2ncc3nccnc3n2)c1Cl,Couples separated after 4 h,[1],> 50%
same,Egg production score,[1],0%
same,Attachment after 4 h,[1],37%
same,Attachment after 24 h,[1],77%
same,Pairing stability after 4 h,[1],13%
same,Pairing stability after 24 h,[1],13%
same,Motility score after 4 h,[1]; [8],1.4
same,Motility score after 24 h,[1]; [8],1.9
same,Motility score after 24 h,[2],2.5 ± 0.1
same,Egg production,"[2]; 10 µM, 24 h",almost completely inhibited egg production
same,Pairing stability after 24 h,"[2]; 10 µM, biological triplicate",complete separation
same,Activity on adult worms,[3],46–55%
same,EC50,"[4]; read-out: EC50 attachment, 4 h after treatment",9.29 µM
same,EC50,"[4]; read-out: EC50 attachment, 24 h after treatment",10.9 µM
same,EC50,"[4]; read-out: EC50 motility, 4 h after treatment",15.7 µM
same,EC50,"[4]; read-out: EC50 motility, 24 h after treatment",18.8 µM
same,EC50,"[4]; read-out: EC50 pairing stability, 4 h after treatment",7.81 µM
same,EC50,"[4]; read-out: EC50 pairing stability, 24 h after treatment",5.96 µM
same,"Morphological changes (tegument, gut, gonads) by CLSM",[5],no clear morphological changes
same,EdU signals in males and females,[6],almost no EdU signals in either males or females
same,Activity against NTS,[7],greater than 65%
COc1ccc(CNc2nc(-c3ccc(C(=O)O)nc3)nc3sc4c(c23)CCCC4)cc1Cl,Egg production score,[1]; tested form: Na salt,0%
same,Attachment after 4 h,[1]; tested form: Na salt,100%
same,Attachment after 24 h,[1]; tested form: Na salt,63%
same,Pairing stability after 4 h,[1]; tested form: Na salt,100%
same,Pairing stability after 24 h,[1]; tested form: Na salt,20%
same,Motility score after 4 h,"[1]; scale 0-4 (3 = normal activity), tested form: Na salt",3.0
same,Motility score after 24 h,[2]; tested form: Na salt,2.4 ± 0.2
same,Attachment capacity after 24 h,"[2]; 10 µM, biological triplicate, tested form: Na salt",detachment of all worms
same,EC50,"[4]; read-out: EC50 attachment, 4 h after treatment, tested form: Na salt",12 µM
same,EC50,"[4]; read-out: EC50 attachment, 24 h after treatment, tested form: Na salt",8.06 µM
same,EC50,"[4]; read-out: EC50 motility, 4 h after treatment, tested form: Na salt",12.8 µM
same,EC50,"[4]; read-out: EC50 motility, 24 h after treatment, tested form: Na salt",6.3 µM
same,EC50,"[4]; read-out: EC50 pairing stability, 4 h after treatment, tested form: Na salt",10.5 µM
same,EC50,"[4]; read-out: EC50 pairing stability, 24 h after treatment, tested form: Na salt",7.09 µM
same,"Morphological changes (tegument, gut, gonads) by CLSM",[5]; tested form: Na salt,no clear morphological changes
same,EdU-positive cells in the ovaries,[6]; tested form: Na salt,slight reduction in the ovaries
same,EdU-positive cells in the testes,[6]; tested form: Na salt,complete reduction of EdU-positive cells in the testes
same,Activity against NTS,[7]; tested form: Na salt,not active

# Where two headings read alike, the source gives them in different places.
